Anti-infective test results gathered from many reports (values: NIAID ChemDB through PubChem).

Common to all: growth or infection tests; agent: Candida albicans; read-out: Mean MIC

Lines come from different laboratories, so protocols vary.

| structure | strain | result |
|---|---|---|
| Clc1ccc(C(c2ccc3ccccc3c2)n2ccnc2)s1 | 23 strains | 3.84 µg/mL |
| Cc1ccc(-c2ccccc2)n1-c1ccc(F)cc1 | 20 strains | >200 µg/mL |
| CN(C)c1ccc(CNc2cccc(Cn3ccnc3)c2)cc1 | 27 strains | 116 µg/mL |
| Cc1c(C(=O)O)c(-c2ccc(Cl)cc2)cn1-c1ccc(F)cc1 | 40 strains | 83.33 µg/mL |
| CC(=O)N1CCN(c2ccc(OCC3COC(Cn4ccnc4)(c4ccc(-c5ccccc5)cc4)O3)cc2)CC1 | 44 strains | 53.9 µg/mL |
| c1ccc(-c2c[nH]cc2C(c2cccc3ccccc23)n2ccnc2)cc1 | 33 strains | 8.97 µg/mL |
| CC(=O)N1CCN(c2ccc(OC[C@H]3CO[C@](Cn4ccnc4)(c4ccc(-c5ccccc5)cc4)O3)cc2)CC1 | 44 strains | >256 µg/mL |
| Cc1c(C(=O)O)c(-c2ccc(F)cc2)cn1-c1ccc(Br)cc1 | 40 strains | 16.77 µg/mL |
| Cc1c(CN2CCN(C)CC2)cc(-c2ccccc2)n1-c1ccc(Cl)cc1 | 20 strains | 159.5 µg/mL |
| Cn1cc(-c2ccccc2)c(C(c2ccc3ccccc3c2)n2ccnc2)c1 | 33 strains | 211 µg/mL |
| Cc1c(C(=O)O)c(-c2ccc(Br)cc2)cn1-c1ccc(Cl)cc1 | 40 strains | 17.32 µg/mL |
| Cc1c(Cn2ccnc2)cc(-c2ccccc2)n1-c1ccc(Cl)cc1Cl | 20 strains | 36.6 µg/mL |
| Cn1cc(-c2ccccc2)c(C(c2ccc(-c3ccccc3)cc2)n2ccnc2)c1 | 33 strains | 190.1 µg/mL |
| Clc1ccc(COc2ccc(C(c3cccc4ccccc34)n3ccnc3)cc2)c(Cl)c1.O=[N+]([O-])O | 16 strains | ≥256 µg/mL |
| OC[C@@H]1CO[C@](Cn2ccnc2)(c2ccc(-c3ccccc3)cc2)O1 | 44 strains | 151.1 µg/mL |
| Clc1ccc(C(c2cccc3ccccc23)n2ccnc2)s1 | 23 strains | 3 µg/mL |
| O=C(Nc1ccccc1Cn1ccnc1)c1ccc(Br)cc1 | 27 strains | 156 µg/mL |
| Cn1cc(-c2ccccc2)c(C(c2ccsc2)n2ccnc2)c1 | 33 strains | >256 µg/mL |
| Clc1ccc(C(c2nccc3ccccc23)n2ccnc2)cc1.O=[N+]([O-])O | 44 strains | 29.6 µg/mL |
| Cc1ccc(C(c2ccc3ccccc3c2)n2ccnc2)cc1 | 23 strains | 4.9 µg/mL |
| O=C(Nc1cccc(Cn2ccnc2)c1)c1ccc(Br)cc1 | 27 strains | 100 µg/mL |
| Cc1c(CN2CCCC2)cc(-c2ccc(Cl)cc2)n1-c1ccc([N+](=O)[O-])cc1 | 20 strains | 10.9 µg/mL |
| c1ccc(C(c2ccc3ccccc3c2)n2ccnc2)cc1 | 23 strains | 9.4 µg/mL |
| Fc1ccc(COc2ccc(C(c3ccc(-c4ccccc4)cc3)n3ccnc3)cc2)cc1.O=[N+]([O-])O | 17 strains | ≥256 µg/mL |
| Cn1cc(-c2ccccc2)c(C(c2cccs2)n2ccnc2)c1 | 33 strains | >256 µg/mL |
| Fc1ccc(C(c2cccc3ccccc23)n2ccnc2)cc1 | 23 strains | 7.1 µg/mL |
| O=C(Nc1cccc(Cn2ccnc2)c1)c1ccccc1Cl | 27 strains | 200 µg/mL |
| CCC1CCCC(CC)C(=O)NCCCC(CC)C(OC2OC(C)C(O)C(N)C2OC2OC(CO)C(O)C(O)C2O)CC1 | 12 strains | ≥10.7 µg/mL |
| Cn1cc(-c2ccccc2)c(C(c2ccc(Cl)s2)n2ccnc2)c1 | 33 strains | >256 µg/mL |
| c1csc(C(c2ccc3ccccc3c2)n2ccnc2)c1 | 23 strains | 8.56 µg/mL |
| CC(=O)Nc1ccc(CNc2cccc(Cn3ccnc3)c2)cc1 | 27 strains | 125 µg/mL |
| Clc1ccc(COc2ccc(C(c3ccc(-c4ccccc4)cc3)n3ccnc3)cc2)c(Cl)c1.O=[N+]([O-])O | 16 strains | ≥256 µg/mL |
| Cc1c(CN2CCCC2)cc(-c2ccccc2)n1-c1ccccc1 | 20 strains | 126.9 µg/mL |
| c1csc(C(c2cccc3ccccc23)n2ccnc2)c1 | 23 strains | 8.3 µg/mL |
| Clc1ccc(COc2ccc(C(c3cccc4ccccc34)n3ccnc3)cc2)cc1.O=[N+]([O-])O | 17 strains | ≥256 µg/mL |
| O=[N+]([O-])c1cccc(CNc2cccc(Cn3ccnc3)c2)c1 | 27 strains | 112.5 µg/mL |
| Clc1ccc(C(c2ccc3ccccc3c2)n2ccnc2)cc1 | 23 strains | 7.13 µg/mL |

Again, the opening 4 rows:

structure | strain | result
Clc1ccc(C(c2ccc3ccccc3c2)n2ccnc2)s1 | 23 strains | 3.84 µg/mL
Cc1ccc(-c2ccccc2)n1-c1ccc(F)cc1 | 20 strains | >200 µg/mL
CN(C)c1ccc(CNc2cccc(Cn3ccnc3)c2)cc1 | 27 strains | 116 µg/mL
Cc1c(C(=O)O)c(-c2ccc(Cl)cc2)cn1-c1ccc(F)cc1 | 40 strains | 83.33 µg/mL